Data from patent US20100016367A1, “BIS-PYRINIDIUM COMPOUNDS” (priority 2006, published 2010).

Assays:
C. albicans ATCC 10231 = assay: Antifungal susceptibility assay, MIC; type: cell-based, Candida albicans
C. neoformans ATCC 90112 = assay: Antifungal susceptibility assay, MIC; type: cell-based, Cryptococcus neoformans
C. albicans ATCC 90028 = assay: Antifungal MIC, broad spectrum; type: cell-based, Candida albicans; details: Table 1b
C. neoformans 05-202523 = assay: Antifungal MIC, broad spectrum; type: cell-based, Cryptococcus neoformans; details: Table 1b
A. terreus 05-202844 = assay: Antifungal MIC, broad spectrum; type: cell-based, Aspergillus terreus; details: Table 1b
S. prolificans 05-203060 = assay: Antifungal MIC, broad spectrum; type: cell-based, Scedosporium prolificans; details: Table 1b
[1] = test system: Paecilomyces lilacinus 05-200601; assay: Antifungal MIC, broad spectrum; type: cell-based; details: Table 1b
[2] = test system: Exophiala spinifera 03-200803; assay: Antifungal MIC, broad spectrum; type: cell-based; details: Table 1b
[3] = test system: Rhizopus oryzae 05-203111; assay: Antifungal MIC, broad spectrum; type: cell-based; details: Table 1b
[4] = test system: Fusarium solani 04-203102; assay: Antifungal MIC, broad spectrum; type: cell-based; details: Table 1b
[5] = test system: Absidia corymbifera 04-200170; assay: Antifungal MIC, broad spectrum; type: cell-based; details: Table 1b
[6] = test system: Exophiala jeanselmei 03-200268; assay: Antifungal MIC, broad spectrum; type: cell-based; details: Table 1b
S. apiospermum 05-203100 = assay: Antifungal MIC, broad spectrum; type: cell-based, Scedosporium apiospermum; details: Table 1b
A. flavus 05-203758 = assay: Antifungal MIC, broad spectrum; type: cell-based, Aspergillus flavus; details: Table 1b
A. flavus ATCC 204304 = assay: Antifungal MIC, broad spectrum; type: cell-based, Aspergillus flavus; details: Table 1b
C. krusei 04-202328 = assay: Antifungal MIC, broad spectrum; type: cell-based, Candida krusei; details: Table 1b
C. krusei ATCC 6258 = assay: Antifungal MIC, broad spectrum; type: cell-based, Candida krusei; details: Table 1b
C. gattii 05-200122 = assay: Antifungal MIC, broad spectrum; type: cell-based, Cryptococcus gattii; details: Table 1b
[7] = test system: C. parapsilosis 04-202398; assay: Antifungal MIC, broad spectrum; type: cell-based, Candida parapsilosis; details: Table 1b
[8] = test system: C. parapsilosis ATCC 22019; assay: Antifungal MIC, broad spectrum; type: cell-based, Candida parapsilosis; details: Table 1b
A. fumigatus 05-203114 = assay: Antifungal MIC, broad spectrum; type: cell-based, Aspergillus fumigatus; details: Table 1b
A. fumigatus ATCC 204305 = assay: Antifungal MIC, broad spectrum; type: cell-based, Aspergillus fumigatus; details: Table 1b
C. tropicalis 04-202361 = assay: Antifungal MIC, broad spectrum; type: cell-based, Candida tropicalis; details: Table 1b
[9] = test system: Cunninghamella berth 99-12187; assay: Antifungal MIC, broad spectrum; type: cell-based, Cunninghamella bertholletiae; details: Table 1b
C. glabrata 04-202345 = assay: Antifungal MIC, broad spectrum; type: cell-based, Candida glabrata; details: Table 1b
C. krusei ATCC 9258 = assay: Antifungal MIC, broad spectrum; type: cell-based, Candida krusei; details: Table 1b

| Molecule | MIC C. albicans ATCC 90028 (C. albicans ATCC 90028) [µM] | MIC C. neoformans 05-202523 (C. neoformans 05-202523) [µM] | MIC C. albicans ATCC 10231 (C. albicans ATCC 10231; Table 1b) [µM] | MIC A. terreus 05-202844 (A. terreus 05-202844) [µM] | MIC S. prolificans 05-203060 (S. prolificans 05-203060) [µM] | MIC Paecilomyces lilacinus 05-200601 [1] [µM] | MIC Exophiala spinifera 03-200803 [2] [µM] | MIC Rhizopus oryzae 05-203111 [3] [µM] | MIC Fusarium solani 04-203102 [4] [µM] | MIC Absidia corymbifera 04-200170 [5] [µM] | MIC S. apiospermum 05-203100 (S. apiospermum 05-203100) [µM] | MIC A. flavus 05-203758 (A. flavus 05-203758) [µM] | MIC A. flavus ATCC 204304 (A. flavus ATCC 204304) [µM] | MIC C. neoformans ATCC 90112 (C. neoformans ATCC 90112; Table 1b) [µM] | MIC C. krusei 04-202328 (C. krusei 04-202328) [µM] | MIC C. krusei ATCC 6258 (C. krusei ATCC 6258) [µM] | MIC C. gattii 05-200122 (C. gattii 05-200122) [µM] | MIC C. parapsilosis 04-202398 [7] [µM] | MIC C. parapsilosis ATCC 22019 [8] [µM] | MIC A. fumigatus 05-203114 (A. fumigatus 05-203114) [µM] | also measured |
| --- | --- | --- | --- | --- | --- | --- | --- | --- | --- | --- | --- | --- | --- | --- | --- | --- | --- | --- | --- | --- | --- |
| CCCCCc1cc[n+](CCCCCCCCCC[n+]2ccc(CCCCC)cc2)cc1 | – | – | – | – | – | – | – | – | – | – | – | – | – | – | – | – | – | – | – | – | MIC C. albicans ATCC 10231 (C. albicans ATCC 10231; Table 1): 2.7 µM; MIC C. neoformans ATCC 90112 (C. neoformans ATCC 90112; Table 1): 11 µM |
| CCCCCc1cc[n+](CCOCCOCCOCC[n+]2ccc(CCCCC)cc2)cc1 | – | – | – | – | – | – | – | – | – | – | – | – | – | – | – | – | – | – | – | – | MIC C. albicans ATCC 10231 (C. albicans ATCC 10231; Table 1a): >175 µM; MIC C. neoformans ATCC 90112 (C. neoformans ATCC 90112; Table 1a): 44 to 88 µM |
| CCCCC(CCCC)c1cc[n+](CCCCCCCCCCCC[n+]2ccc(C(CCCC)CCCC)c(C)c2)cc1C | 2.75 | 5.5 | 2.75 | 5.5 | 5.5 | 87.5 | 2.75 | 5.5 | 44 | 44 | 2.75 | 87.5 | 22 | 2.75 | 5.5 | 5.5 | 2.75 | 22 | 2.75 | 22 | MIC Exophiala jeanselmei 03-200268 [6]: 5.5 µM; MIC A. fumigatus ATCC 204305 (A. fumigatus ATCC 204305): 22 µM; MIC C. tropicalis 04-202361 (C. tropicalis 04-202361): 2.75 µM; MIC Cunninghamella berth 99-12187 [9]: 22 µM; MIC C. glabrata 04-202345 (C. glabrata 04-202345): 2.75 µM |
| CCCCCc1cc[n+](CCCCCCCCCCCC[n+]2ccc(CCCCC)c(C)c2)cc1C | 2.75 | 22 | 2.75 | 1.4 | 2.75 | >87.5 | 1.4 | 2.75 | 22 | 87.5 | 11 | 44 | 22 | 1.4 | 11 | 11 | 1.4 | 44 | 1.4 | 44 | MIC Exophiala jeanselmei 03-200268 [6]: 2.75 µM; MIC A. fumigatus ATCC 204305 (A. fumigatus ATCC 204305): 44 µM; MIC C. tropicalis 04-202361 (C. tropicalis 04-202361): 1.4 µM; MIC C. glabrata 04-202345 (C. glabrata 04-202345): 1.4 µM |
| CCCCCc1cc[n+](CCCCCCCCCCCCCCCC[n+]2ccc(CCCCC)cc2)cc1 | – | – | – | – | – | – | – | – | – | – | – | – | – | – | – | – | – | – | – | – | MIC C. albicans ATCC 10231 (C. albicans ATCC 10231; Table 1): 0.7 µM; MIC C. neoformans ATCC 90112 (C. neoformans ATCC 90112; Table 1): 0.7 µM |
| CC(C)CCc1cc[n+](CCCCCCCCCCCC[n+]2ccc(CCC(C)C)cc2)cc1 | 5.5 | 22 | 5.5 | 5.5 | 5.5 | >87.5 | 2.75 | 11 | 87.5 | >87.5 | 22 | >87.5 | >87.5 | 5.5 | 44 | 44 | 2.75 | >87.5 | 2.75 | >87.5 | MIC C. albicans ATCC 10231 (C. albicans ATCC 10231; Table 1c): 5.5 µM; MIC Exophiala jeanselmei 03-200268 [6]: 5.5 µM; MIC C. neoformans ATCC 90112 (C. neoformans ATCC 90112; Table 1c): 5.5 µM; MIC C. krusei ATCC 9258 (C. krusei ATCC 9258): 22 µM; MIC A. fumigatus ATCC 204305 (A. fumigatus ATCC 204305): >87.5 µM; MIC C. tropicalis 04-202361 (C. tropicalis 04-202361): 5.5 µM; MIC Cunninghamella berth 99-12187 [9]: >87.5 µM; MIC C. glabrata 04-202345 (C. glabrata 04-202345): 2.75 µM |
| CCCCCc1cc[n+](CCOCCOCCOCCOCC[n+]2ccc(CCCCC)cc2)cc1 | – | – | – | – | – | – | – | – | – | – | – | – | – | – | – | – | – | – | – | – | MIC C. albicans ATCC 10231 (C. albicans ATCC 10231; Table 1a): >175 µM; MIC C. neoformans ATCC 90112 (C. neoformans ATCC 90112; Table 1a): 88 µM |
| 1,12-bis[4-(1-pentene)pyiridinium]dodecane dichloride | – | – | – | – | – | – | – | – | – | – | – | – | – | – | – | – | – | – | – | – | MIC C. albicans ATCC 10231 (C. albicans ATCC 10231; Table 1): 2.7 µM; MIC C. albicans ATCC 10231 (C. albicans ATCC 10231; Table 1c): 2.75 µM |
| 1,12-bis(3,4-Dipentylpyridinium)dodecane | – | – | – | – | – | – | – | – | – | – | – | – | – | – | – | – | – | – | – | – | MIC C. albicans ATCC 10231 (C. albicans ATCC 10231; Table 1c): 2.75 µM; MIC C. neoformans ATCC 90112 (C. neoformans ATCC 90112; Table 1c): 2.75 µM |
| 1,12-bis[3-Methyl,4-pentyl(2-butyl)pyridinium]dodecane | – | – | – | – | – | – | – | – | – | – | – | – | – | – | – | – | – | – | – | – | MIC C. albicans ATCC 10231 (C. albicans ATCC 10231; Table 1c): 2.75 µM; MIC C. neoformans ATCC 90112 (C. neoformans ATCC 90112; Table 1c): 2.75 µM |
| CCCCCc1cc[n+](CCCCCCCC[n+]2ccc(CCCCC)cc2)cc1 | – | – | – | – | – | – | – | – | – | – | – | – | – | – | – | – | – | – | – | – | MIC C. albicans ATCC 10231 (C. albicans ATCC 10231; Table 1): 2.7 µM; MIC C. neoformans ATCC 90112 (C. neoformans ATCC 90112; Table 1): 44 µM |
| c1ccc(CCCc2cc[n+](CCCCCCCCCCCC[n+]3ccc(CCCc4ccccc4)cc3)cc2)cc1 | 2.75 | 44 | 2.75 | 2.75 | >87.5 | >87.5 | 2.75 | 1.4 | 44 | >87.5 | >87.5 | >87.5 | 87.5 | 2.75 | 22 | 22 | 2.75 | 87.5 | 1.4 | 22 | MIC A. fumigatus ATCC 204305 (A. fumigatus ATCC 204305): 44 µM; MIC C. tropicalis 04-202361 (C. tropicalis 04-202361): 1.4 µM; MIC Cunninghamella berth 99-12187 [9]: 44 µM; MIC C. glabrata 04-202345 (C. glabrata 04-202345): 1.4 µM |
| CC(C)(C)CCc1cc[n+](CCCCCCCCCCCC[n+]2ccc(CCC(C)(C)C)cc2)cc1 | 5.5 | 44 | 5.5 | 87.5 | 2.75 | >87.5 | 1.4 | 11 | >87.5 | >87.5 | 11 | >87.5 | >87.5 | 2.75 | 44 | 44 | 2.75 | 87.5 | 2.75 | >87.5 | MIC Exophiala jeanselmei 03-200268 [6]: 2.75 µM; MIC A. fumigatus ATCC 204305 (A. fumigatus ATCC 204305): >87.5 µM; MIC C. tropicalis 04-202361 (C. tropicalis 04-202361): 2.75 µM; MIC Cunninghamella berth 99-12187 [9]: >87.5 µM; MIC C. glabrata 04-202345 (C. glabrata 04-202345): 1.4 µM |
| CCCCCCc1cc[n+](CCCCCCCCCCCC[n+]2ccc(CCCCCC)cc2)cc1 | 1.4 | 11 | 1.4 | 1.4 | 44 | 87.5 | 2.75 | 1.4 | 22 | 87.5 | 87.5 | 44 | 22 | 1.4 | 5.5 | 5.5 | 1.4 | 44 | 1.4 | 22 | MIC Exophiala jeanselmei 03-200268 [6]: 1.4 µM; MIC A. fumigatus ATCC 204305 (A. fumigatus ATCC 204305): 22 µM; MIC C. tropicalis 04-202361 (C. tropicalis 04-202361): 1.4 µM; MIC Cunninghamella berth 99-12187 [9]: 22 µM; MIC C. glabrata 04-202345 (C. glabrata 04-202345): 1.4 µM |
